# Percent effect of library compounds

Values are the deposited “Percent Effect”, in %. The controls that fix the scale are not given in the record; negative values are as filed. The entries come from a sample that favours strong results. A dash means the value is not listed here; it may have been measured.

Mtb cholesterol medium: 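Growth of Mycobacterium tuberculosis over 4 days (cholesterol / DPPC medium with tyloxapol); the read-out is not stated. Tested at 500 µM. The record gives no direction; compounds that gave an IC50 in retests scored well above the rest, so higher reads as more growth inhibition. About 18,000 compounds were tested under these conditions; 5% (about 900) showed 50% or more at least once.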
Mtb glucose medium: 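Growth of Mycobacterium tuberculosis over 3 days (7H9 medium with glucose and tyloxapol); the read-out is not stated. Tested at 500 µM. Direction is inferred from retests: higher values go with more growth inhibition. About 18,000 compounds were tested under these conditions; 7.9% (about 1,400) showed 50% or more at least once.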

OCCNc1nc2ccccc2s1 read Mtb cholesterol medium: -7.277%.
COc1ccc(C(=O)NCCN(C)C)cc1F read Mtb cholesterol medium: 6.285%; Mtb glucose medium: 8.396%.
CCS(=O)(=O)N1CC(F)(F)C[C@H]1c1nc(C)no1 read Mtb glucose medium: 7.38%.
CC(C)(C)c1ccc(N)nc1 read Mtb cholesterol medium: -3.732%.
COc1c(CNCc2nncn2C)c(C)nn1C read Mtb glucose medium: -11.43%.
COc1cc(C(N)=O)cc2c1OCCO2 read Mtb glucose medium: 7.111%.
COc1ccc(NC(=O)CNC(=O)C(C)(C)C)cc1 read Mtb glucose medium: 25.44%.
OCC12CCN(CC1)CC2 read Mtb cholesterol medium: -13.35%.
CN1C[C@@H](N)C[C@H]1c1nc(C2CCOCC2)n[nH]1 read Mtb cholesterol medium: -19.75%.
CN(CCC(N)=O)Cc1ccc(Br)o1 read Mtb cholesterol medium: 20.22%; Mtb glucose medium: 18.41%.
OCCc1cnn(-c2ccccc2CO)c1 read Mtb glucose medium: 8.535%.
CCn1nccc1NC(=O)c1ccccc1 read Mtb glucose medium: 3.88%.
Cc1ccc(C(=O)N2CCOCC2(C)C)cc1F read Mtb glucose medium: 22.8%.
CC(NS(C)(=O)=O)C(=O)N1CCc2ccc(Br)cc21 (stereo not shown) read Mtb glucose medium: 43.57%.
CN1CCN(C(=O)c2cnsn2)c2ccccc21 read Mtb cholesterol medium: 37.14%; Mtb glucose medium: 50.46%.
CCC(N)c1cccc(OC)c1OC (stereo not shown) read Mtb cholesterol medium: -2.237%; Mtb glucose medium: 2.13%.
Cc1ccc(C(=O)NCCNc2ccncc2)c(=O)[nH]1 read Mtb glucose medium: 12.96%.
N#CC1(C(=O)NCc2ccncc2)CCOCC1 read Mtb glucose medium: 1.963%.
NC1CCC(=O)NC1 (stereo not shown) read Mtb glucose medium: -18.98%.
CCCN(CCC(=O)N(C)C)Cc1nccn1C read Mtb cholesterol medium: -19.25%.
CN(CC(N)=O)Cc1cc(Br)c2c(c1)OCO2 read Mtb cholesterol medium: 28.33%; Mtb glucose medium: 40.79%.
O=C(Nc1nccs1)N1CCC2(CC1)OCCO2 read Mtb cholesterol medium: 10.57%.
CN(CCN)CC(=O)N(C)C read Mtb glucose medium: -7.199%.
O=C1CCN(Cc2cc(Br)cc3c2OCC3)CCN1 read Mtb cholesterol medium: -15.88%; Mtb glucose medium: -6.452%.
NCc1cc(Oc2ccc(F)cc2)ccn1 read Mtb cholesterol medium: -23.45%; Mtb glucose medium: -13.43%.
CC(C)(C)OC(=O)N[C@H]1CS(=O)(=O)[C@@H]2CNC[C@H]12 read Mtb cholesterol medium: 5.562%.
Cc1ncc(CN2CCn3ccnc3C2)s1 read Mtb cholesterol medium: -10.52%.
NC1CCN(CCC(=O)Nc2ccccc2)CC1 read Mtb glucose medium: 17.02%.
CCOCCN1CCN(CC)[C@@H]2CS(=O)(=O)C[C@@H]21 read Mtb glucose medium: 7.679%.
Cc1ccc(CNCc2cncs2)c(N2CCCC2)n1 read Mtb cholesterol medium: -10.55%.
COCCNCc1cn(CCC(N)=O)c2ccccc12 read Mtb glucose medium: 2.839%.
CN(CC(=O)NC(N)=O)Cc1ccc(C(F)(F)F)cc1 read Mtb cholesterol medium: -24.75%.
NCC1CCCN(c2ncccn2)C1 (stereo not shown) read Mtb glucose medium: 62.91%.
NC1CCCN(C2CCCCC2)C1=O (stereo not shown) read Mtb glucose medium: 25.04%.
CC(C)C(=O)N1CCC(C(=O)c2ccc(O)cc2)CC1 read Mtb glucose medium: 66.13%.
CC(=O)Nc1cccc(CN(C)CCC(C)O)c1 (stereo not shown) read Mtb glucose medium: 13.95%.
CN1CC(C(=O)N2CCC(c3ncc[nH]3)CC2)NC1=O (stereo not shown) read Mtb cholesterol medium: 9.058%.
NCC(=O)N1CCC(Cc2ccccc2)CC1 read Mtb cholesterol medium: 3.942%; Mtb glucose medium: 11.22%.
COc1cc(Br)cc(C)c1NC(=O)CNC(C)=O read Mtb cholesterol medium: 4.069%.
CN(C)c1ncc(CN2CCCC(O)(CO)CC2)cn1 (stereo not shown) read Mtb cholesterol medium: 29.4%.
Cc1nc(C(N)c2ccc(Cl)c(F)c2)no1 (stereo not shown) read Mtb glucose medium: 31.25%.
COCCn1cnnc1CCNc1ncccn1 read Mtb cholesterol medium: -34.62%.
NC1(c2nc(=O)c3c([nH]2)CCC3)CCCC1 read Mtb cholesterol medium: -4.307%.
CC(C)CSc1nnc(CN2CCCC2=O)o1 read Mtb cholesterol medium: 33.06%; Mtb glucose medium: 37.56%.

Once more, the final 3:

structure,Mtb cholesterol medium,Mtb glucose medium
COCCn1cnnc1CCNc1ncccn1,-34.62,-
NC1(c2nc(=O)c3c([nH]2)CCC3)CCCC1,-4.307,-
CC(C)CSc1nnc(CN2CCCC2=O)o1,33.06,37.56

The values are deposited in ChEMBL (CHEMBL3988442, “University of Dundee, Small-Polar-MMV Screening Library” (2021)).